This note sets out measurements from paper PMC8339232 (Current Research in Structural Biology, 2021).

The target in assay [1] is Rv1747 FHA regulatory domain (residues 1-310), phosphomimetic mutant T210E (Mycobacterium tuberculosis H37Rv, UniProt O65934 1-310, T210E). The experiment in a line: SAXS.
Assay [2] has as its target Rv1747 FHA regulatory domain (residues 1-310), phosphomimetic mutant T152E (Mycobacterium tuberculosis H37Rv, UniProt O65934 1-310, T152E). As to the kind of experiment: SAXS.

B1: autophosphorylated cytoplasmic catalytic domain of Mtb PknF (cPknF*, residues 1-299) (domain or fragment)
chain: MPLAEGSTFAGFTIVRQLGSGGMGEVYLARHPRLPRQDALKVLRADVSADGEYRARFNREADAAASLWHPHIVAVHDRGEFDGQLWIDMDFVDGTDTVSLLRDRYPNGMPGPEVTEIITAVAEALDYAHERRLLHRDVKPANILIANPDSPDRRIMLADFGIAGWVDDPSGLTATNMTVGTVSYAAPEQLMGNELDGRADQYALAATAFHLLTGSPPFQHANPAVVISQHLSASPPAIGDRVPELTPLDPVFAKALAKQPKDRYQRCVDFARALGHRLGGAGDPDDTRVSQPVAVAAPA
modifications: up to seven phosphate groups incorporated by autophosphorylation (intact mass 33 378 Da); sites not determined
Turning to B1, the binding result in assay [1] and in assay [2] was “binds” throughout.
